{
  "sequences": {"note": "Sequences of proteins named here, by UniProt entry; tags and fusion partners are left off. A change or cut given only in a name is not applied to a line headed by its entry.", "UniProt P15905": "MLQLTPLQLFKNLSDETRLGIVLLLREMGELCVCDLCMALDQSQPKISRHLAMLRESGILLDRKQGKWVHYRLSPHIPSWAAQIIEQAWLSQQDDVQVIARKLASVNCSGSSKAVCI"},
  "source": "patent US20040115786A1",
  "about": "(priority 2001, published 2004)",
  "target": "ArsR (Escherichia coli, UniProt P15905)",
  "assay": "Surface plasmon resonance (BIAcore): ArsR binding to immobilized dsDNA in the presence of arsenic ligand",
  "conditions": "PAO 100 μM (highest concentration); ArsR 3.27 μM injected over PLASL1 and CHROML1 surfaces; HBS-EP, 25° C.",
  "data": [
    {"smiles": "O=[As]c1ccccc1", "note": "(stereo not shown)", "values": [
      {"measurement": "inhibition of ArsR binding", "value": "about 55%"}
    ]}
  ]
}
